Source: patent publication US10632172B2, “Injectable self-assembling antibacterial peptide hydrogels” (New Jersey Institute of Technology, priority 2018, dated 2020)

Experiment: In vivo subcutaneous implantation of hydrogel, histology
Design: species or system Wistar rats
Details: rat; for cellular infiltration of implant at 7 days: histology
Protocol: To test the in vivo persistence of the peptide, Wistar rats were subcutaneously injected with 200 μL CASP-K6 hydrogel (2% w/v). Because of the thixotropic nature of the hydrogel, it reconstituted post-injection in the subcutaneous pocket. At prescribed time intervals (1, 3, and 7 days), the rats were sacrificed and the dorsal skin covering the implant was removed for histological examination. Used was hematoxylin and eosin (H&E) FIGS. 15A-15B, and Masson's trichrome staining FIGS. 15C-15D) to analyze the tissue sections.
For in vivo subcutaneous implantations, NJIT-Rutgers animal care facility was used. Injected was ˜200 μL CASP-K6 hydrogels in the subcutaneous pocket (dorsal aspect) of female Wistar rats (˜250 g, Charles River) (four implants (n=4) per rat). At the specified time points (1 day, 3 day, and 7 day), the animals were sacrificed and regions around the implant were excised, fixed, and processed. Hematoxylin and eosin (H&E) and Masson's trichrome staining was used for histologic analysis.

Substance | cellular infiltration of implant at 7 days | cellular infiltration of implant at day 3 (day 3, histology)
KKSLSLSLSLSLSLKK (CASP-K2) [cationic amphiphilic self-assembling peptide, previously reported as a multifunctional scaffold] | relatively higher degrees of infiltration | 
Ac-KKKKKKSLSLSLSLSLSLKKKKKK-NH2 [CASP-K6] | lightly infiltrated with cells; also recorded: little cellular infiltration | cellular infiltration is observed on day 3 at the periphery of the hydrogel

“Also recorded” adds a separate entry of the source.
